Measured values from several laboratories, pooled; numbers as filed in NIAID ChemDB.

Shared fields: tests on isolated targets; target: CCR5; read-out: IC50

An empty or dashed field is not shown.

compound	read by	result
Cc1ccc(N(CCCN2CCC(Cc3ccc(F)cc3)CC2)C(=O)C2CCN(S(C)(=O)=O)CC2)cc1Cl	radiometric	0.0005 µM
CN(C[C@@H](CCN1CCC2(CC1)CN(S(C)(=O)=O)c1ccccc12)c1ccc(Cl)c(Cl)c1)S(=O)(=O)c1ccccc1	radioligand binding / binding	0.5 µM
COCCOc1ccc(-c2ccc3c(c2)C=C(C(=O)Nc2ccc(CN(C)C4CCOCC4)cc2)CCS3(=O)=O)cc1	radiometric	0.14 µM
COc1ccc(CC2CCN(CCCN(C(=O)C3CCN(S(C)(=O)=O)CC3)c3ccc(Cl)c(Cl)c3)CC2)cc1	radiometric	0.0079 µM
CN(C[C@@H](CCN1CCC2(CC1)CS(=O)c1ccccc12)c1ccc(Cl)c(Cl)c1)S(=O)(=O)c1ccc(-c2ccon2)s1	radioligand binding / binding	0.02 µM
CS(=O)(=O)N1CCC(C(=O)N(CCCN2CCC(Cc3ccc([N+](=O)[O-])cc3)CC2)c2ccc(Cl)c(Cl)c2)CC1	radiometric	0.0024 µM
CCCCOCCOc1ccc(-c2ccc3c(c2)C=C(C(=O)Nc2ccc(CN(C)C4CCOCC4)cc2)CCS3(=O)=O)cc1	radiometric	0.027 µM
CCN(C(=O)Cc1ccc(S(C)(=O)=O)cc1)C1CCN(CC[C@H](NC(=O)OC(C)(C)C)c2cccc(F)c2)CC1	fluorescence	<50 µM
CCO/N=C(\c1ccc(Br)cc1)C1CCN(C2(C)CCN(C(=O)c3c(C)cc[n+]([O-])c3C)CC2)CC1	fluorescence	<1 µM
CC(=O)N1CCC(C(=O)N(CCCN2CCC(Cc3ccc(F)cc3)CC2)c2cccc(Cl)c2)CC1	radiometric	0.003 µM
CCN(C(=O)Cc1ccc(S(C)(=O)=O)cc1)C1CCN(CC[C@H](NC(=O)C2CCN(C(=O)OC(C)(C)C)CC2)c2ccccc2)CC1	fluorescence	<50 µM
C/C=C(\C)[C@@H]1C=C[C@@H]2C[C@H](C)C[C@H](C)[C@H]2[C@@H]1C(=O)C1=C(O)[C@@H](CC[C@@](C)(O)C(=O)O)CC1=O	binding	0.0786 µM
CCCCOCCOc1ccc(-c2ccc3c(c2)C=C(C(=O)Nc2ccc(CN(C)C4CCOCC4)cc2)CCN3Cc2cnn(C)c2)cc1	radiometric	0.0027 µM
CN(C[C@@H](CCN1CCC2(CC1)CS(=O)c1ccccc12)c1ccc(Cl)c(Cl)c1)C(=O)N(C)c1ccccc1	radioligand binding / binding	>10 µM
CCN(C(=O)Cc1ccc(S(C)(=O)=O)cc1)C1CCN(CC[C@H](NC(=O)C2CCN(S(=O)(=O)Cc3ccccc3)CC2)c2ccccc2)CC1	fluorescence	<50 µM
CCCCOCCOc1ccc(-c2ccc3c(c2)C=C(C(=O)Nc2ccc([S@@](=O)Cc4cncn4CCC)cc2)CCN3CCC)cc1	radiometric	0.0017 µM
CCCCOCCOc1ccc(-c2ccc3c(c2)C=C(C(=O)Nc2ccc(CN(C)C4CCOCC4)cc2)CCN3C)cc1	radiometric	0.021 µM
CCCCOCCOc1ccc(-c2ccc3c(c2)C=C(C(=O)Nc2ccc(S(=O)Cc4ccnn4C)cc2)CCN3CC(C)C)cc1	radiometric	0.035 µM
CN(C[C@@H](CCN1CCC2(CC1)CS(=O)c1ccccc12)c1ccc(Cl)c(Cl)c1)S(=O)(=O)c1ccc2c(c1)CCC2	radioligand binding / binding	0.07 µM
CCN(C(=O)Cc1ccc(S(C)(=O)=O)cc1)C1CCN(CC[C@H](NC(=O)Oc2ccc(F)cc2)c2ccccc2)CC1	fluorescence	<50 µM
CC(=O)N1CCC(C(=O)N(CCCN2CCC(Cc3ccc(F)cc3)CC2)c2ccc(C)c(Cl)c2)CC1	radiometric	0.00029 µM
CC(C)=CC[C@@H](O)C1=CC(=O)c2c(O)ccc(O)c2C1=O	-	<1 µM
CCCOCCOc1ccc(-c2ccc3c(c2)C=C(C(=O)Nc2ccc(CN(C)C4CCOCC4)cc2)CCN3CC)cc1	radiometric	0.017 µM
c1cnc2c(NCc3ccc(CN4CCCNCCNCCCNCC4)cc3)cccc2c1	fluorescence	<10 µM
CCN(C(=O)Cc1ccc(S(C)(=O)=O)cc1)C1CCN(CC[C@H](NC(=O)OCc2ccccc2)c2ccccc2)CC1	fluorescence	<50 µM
CS(=O)(=O)N1CCC(C(=O)N(CCCN2CCC(Cc3ccccc3)CC2)c2ccccc2)CC1	radiometric	0.04 µM
CCCCOCCOc1ccc(-c2ccc3c(c2)C=C(C(=O)Nc2ccc(S(=O)Cc4nccn4CCCC)cc2)CCN3CC(C)C)cc1	radiometric	0.014 µM

Conditions beyond the fields shown may differ between rows. ICn is the concentration giving n% inhibition.